Experimental data: PubChem BioAssay AID504761 (Drosophila RNAi Screening Center, 2011)
Assay: 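Fly genes whose silencing reduces dengue virus type 2 infection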 (primary screen). Cell system: D.Mel-2 cells from Drosophila. Knock-down reagent: long dsRNA against Drosophila genes. Treatment: infection with dengue virus type 2; dose and infection time not stated. Detection: 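Cells stained for dengue envelope protein and imaged; percent of infected cells per well on duplicate plates, ranked by infection, with stained nuclei counted for cell number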. Scale: infection score: higher = more virus-infected cells; cell count: higher = more cells in the well. Call rule: 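Low infection ranks in the two replicates (chance level up to 0.065) followed by a retest with a 1.5-fold or larger significant decrease, p below 0.05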. Meaning of the calls: active = confirmed: knock-down lowers infection; inactive = not picked or not confirmed.
The screen tested about 22,000 reagents; shown is a random part of those that have a named target and a result. Over the whole deposit, 116 (0.52%) were called active. 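Calls depend on retest data that are not deposited; infection was ranked per plate without normalising between plates; the unit of the infection score is not given.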 Raw values are not corrected between plates. The numbers tell different reagents against one gene apart. Not all columns of the deposit are shown. Not stated in the record: the amount of reagent, the time to read-out.

Cby (Chibby) gave infection score, replicate 1 = 1.47; cell count, replicate 1 = 6607; inactive. SCAP (SREBP cleavage activating protein) #1 showed infection score, replicate 1 = 12.4; cell count, replicate 1 = 6067; inactive. SCAP (SREBP cleavage activating protein) #2 scored infection score, replicate 1 = 3.07; cell count, replicate 1 = 6068; inactive. Hr38 (Hormone receptor-like in 38) #1 scored infection score, replicate 1 = 1.31; cell count, replicate 1 = 6970; inactive. Depletion of Hr38 (Hormone receptor-like in 38) #2 gave: infection score, replicate 1 = 4.58; cell count, replicate 1 = 6857; inactive. For ssp (sunspot) the deposit lists infection score, replicate 1 = 16.1; cell count, replicate 1 = 5991; inactive.

With knock-down of Sec31 (Secretory 31) #1 the results were infection score, replicate 1 = 9.83; cell count, replicate 1 = 5969; inactive. Sec31 (Secretory 31) #2 scored infection score, replicate 1 = 11.2; cell count, replicate 1 = 6574; inactive. Cadps (Calcium-dependent secretion activator) #1 showed infection score, replicate 1 = 1.92; cell count, replicate 1 = 6766; inactive. Silencing of Cadps (Calcium-dependent secretion activator) #2 gave: infection score, replicate 1 = 14.6; cell count, replicate 1 = 5442; inactive. Sry-delta (Serendipity delta) showed infection score, replicate 1 = 3.29; cell count, replicate 1 = 5813; inactive. With knock-down of Cwc25, the screen gave infection score, replicate 1 = 8.2; cell count, replicate 1 = 6290; inactive.

unc (uncoordinated) #1 scored infection score, replicate 1 = 6.34; cell count, replicate 1 = 6153; inactive. unc (uncoordinated) #2 gave infection score, replicate 1 = 11.9; cell count, replicate 1 = 6755; inactive. After knock-down of CG14756 #1, the record shows infection score, replicate 1 = 9.07; cell count, replicate 1 = 5633; inactive. With knock-down of CG14756 #2, the record shows infection score, replicate 1 = 10.4; cell count, replicate 1 = 4891; inactive. For Rpp14b (Ribonuclease P/MRP subunit p14 b) the deposit lists infection score, replicate 1 = 9.62; cell count, replicate 1 = 6455; inactive. For kar (karmoisin), the entry reads infection score, replicate 1 = 3.33; cell count, replicate 1 = 1051; inactive.

With knock-down of CG2790 #1, the screen gave infection score, replicate 1 = 4.38; cell count, replicate 1 = 6574; inactive. CG2790 #2 showed infection score, replicate 1 = 4.67; cell count, replicate 1 = 6301; inactive. With knock-down of THADA, the screen gave infection score, replicate 1 = 2.23; cell count, replicate 1 = 6769; inactive.

Laid out differently: entries from further up.
| gene | dsRNA no. | infection score, replicate 1 | cell count, replicate 1 | Outcome |
| --- | --- | --- | --- | --- |
| Hr38 (Hormone receptor-like in 38) | 1 | 1.31 | 6970 | inactive |
| Hr38 (Hormone receptor-like in 38) | 2 | 4.58 | 6857 | inactive |
